Measurements as given in PMC12057359, “Inhibitory effect of copper chelators on the budding in Candida albicans” (Antimicrobial Agents and Chemotherapy, 2025).

Tested on: C. albicans JCM1542
Details: C. albicans JCM1542, MOPS-RPMI medium, 24 h

H2O2
morphological change induced in C. albicans: completely distinct from those of the copper chelators
